Tested on: MRC5
Test: Cytotoxicity in human MRC5 cells by neutral red uptake assay
Format: cell-based

O=c1[nH]c(SCc2cc([N+](=O)[O-])cc([N+](=O)[O-])c2)nc2ccc([N+](=O)[O-])cc12
CC50: 34 µM

From ChEMBL document CHEMBL4765469, “2-((3,5-Dinitrobenzyl)thio)quinazolinones: Potent Antimycobacterial Agents Activated by Deazaflavin (F)-Dependent Nitroreductase (Ddn)” (J Med Chem, 2021)
